Pooled drug test results. Numbers come from NIAID ChemDB, via PubChem.

Common to all: cytotoxicity tests; cell line: C8166; measure: CC50

CCn: concentration that lowers growth or viability of the cells by n%. Neighbouring rows are from separate reports.

smiles,result
O=C1C[C@@H](c2ccc(O)cc2)Oc2cc(O)cc(O)c21,10 µg/mL
COC(=O)[C@H](C)NP(=O)(OC[C@@H]1C=C[C@H](n2cnc3c(N)ncnc32)O1)Oc1ccccc1,19 µM
C=C(C)/C=C/C[C@@H](C)[C@H]1CC[C@@]2(C)C3[C@@H](O)C=C4C(CC[C@H](O)C4(C)C)[C@]3(C=O)CC[C@]12C,16.2 µg/mL
Cc1cn([C@H]2C[C@H](N=[N+]=[N-])[C@@H](CO)O2)c(=O)[nH]c1=O,<403 µM
COc1cc(-c2oc3cc(O)cc(O)c3c(=O)c2O)ccc1O,>100 µg/mL
CC(C)=CCN1Cc2cc(Cl)cc3[nH]c(=S)n(c23)C[C@@H]1C,>10 µM
O=c1c(O)c(-c2ccc(O)cc2)oc2cc(O)cc(O)c12,10 µg/mL
CC(C)=CC(=O)C[C@@H](C)[C@H]1CC[C@@]2(C)C3C(=O)C=C4C(CCC(=O)C4(C)C)[C@]3(C=O)CC[C@]12C,92.1 µg/mL
COC(=O)[C@H](C)NP(=O)(OC[C@@H]1CC[C@H](n2cnc3c(N)ncnc32)O1)Oc1ccccc1,15 µM
Cc1cn([C@H]2C[C@H](N=[N+]=[N-])[C@@H](CO)O2)c(=O)[nH]c1=O,>200 µg/mL
C[C@@H]1O[C@@H](OC[C@H]2O[C@@H](Oc3c(-c4ccc(OS(=O)(=O)O)c(OS(=O)(=O)O)c4)oc4cc(OS(=O)(=O)O)cc(OS(=O)(=O)O)c4c3=O)[C@H](OS(=O)(=O)O)[C@@H](OS(=O)(=O)O)[C@@H]2OS(=O)(=O)O)[C@H](OS(=O)(=O)O)[C@H](OS(=O)(=O)O)[C@H]1OS(=O)(=O)O,1295 µM
C[C@H](CC(=O)CC(C)(C)O)[C@H]1CC[C@@]2(C)C3C(=O)[C@@H]4O[C@]45C(CCC(=O)C5(C)C)[C@]3(C=O)CC[C@]12C,>200 µg/mL
C[C@@H]1O[C@@H](Oc2c(-c3ccc(O)c(O)c3)oc3cc(O)cc(O)c3c2=O)[C@H](O)[C@H](O)[C@H]1O,>100 µg/mL
CC(C)=CC(=O)C[C@@H](C)[C@H]1CC[C@@]2(C)C3[C@@H](O)C=C4C(CC[C@H](O)C4(C)C)[C@]3(C=O)CC[C@]12C,76.3 µg/mL
O=c1cc(-c2ccccc2)oc2cc(O)cc(O)c12,50 µg/mL